Assay results from article PMC10107573 (Nature Communications, 2023).

B1: monoclonal antibody 6-2C (human IgG1) (antibody, V domains shown)
VH: QVQLVESGGGVVQPGRSLRLSCASSGFTFSTYHMHWVRQPPGKGLEWVAFISYDGSNYYYSDSVKGRFTISRDNSKNTVYLQMNSLRAEDTALYYCARDSSGWHWGVPFDYWGQGTLVTVSS
VL: EIVLTQSPSSLSASVQDRVTITCRASQVISNYLAWFQQKPGKAPKLLIYAASNLQSGVPSRFRGSGSGTDFTLTISSLQPEDFATYYCQQYNIYPLTFGGGTKVDIK
B2: 6-2C Fab (Fab, V domains shown)
VH: B1 VH
VL: B1 VL

Assays:
[1] = target: recombinant biotinylated SARS-CoV-2 spike RBD, wild type (SARS-CoV-2, UniProt P0DTC2, biotinylated); experiment: BLI; conditions: both partners purified
[2] = target: SARS-CoV-2 spike RBD (wild type) used for crystallization (SARS-CoV-2, UniProt P0DTC2); experiment: crystal structure; conditions: both partners purified

Binder	binding result [1]	binding result [2]
B1	binds	–
B2	–	binds
